Compound potency records, mixed from different reports. Data source: NIAID ChemDB in PubChem.

Shared fields: target-level tests; agent: HIV-1; protein: Reverse transcriptase

Fold resistance: result on the changed form divided by that on wild type. Lines come from different laboratories, so protocols vary. ICn: concentration for n% inhibition. a–b is a range or a potency band.

{"SMILES": "CC(C)(C)c1ccc(-n2nnnc2SCC(=O)Nc2ccc(NC(=O)Cc3cc[n+]([O-])cc3)cc2Cl)c(Cl)c1", "changes": "RT-K103 Y181C", "read by": "PicoGreen / fluorescence", "read-out": "IC50", "result": "<1 µM"}
{"SMILES": "CC(=O)Nc1ccc2c(c1)CN(c1nn3c(C)nnc3c3ccccc13)CC2", "strain": "98US_MSC5016", "read by": "RT activity / fluorescence", "read-out": "IC90", "result": "24.1 µM"}
{"SMILES": "CC(C)(C)c1ccc(-n2nnnc2SCC(=O)Nc2ccc(NC(=O)c3ccc(C(=O)O)cc3)cc2Cl)c(Cl)c1", "strain": "WT", "read by": "PicoGreen / fluorescence", "read-out": "IC50", "result": "<1 µM"}
{"SMILES": "CC(C)c1nnc2c3ccccc3c(N3CCc4ccc(NS(C)(=O)=O)cc4C3)nn12", "strain": "98US_MSC5016", "read by": "RT activity / fluorescence", "read-out": "IC90", "result": "2.77 µM"}
{"SMILES": "CC(C)(C)c1ccc(-n2nnnc2SCC(=O)Nc2ccc(C(=O)Nc3ccccc3O)cc2Cl)c(Cl)c1", "changes": "RT-K103 Y181C", "read by": "PicoGreen / fluorescence", "read-out": "IC50", "result": "<1 µM"}
{"SMILES": "COc1ccc2c(c1)CN(c1nn3c(-c4cccs4)nnc3c3ccccc13)CC2", "strain": "KER2008", "read by": "RT activity / fluorescence", "read-out": "IC90", "result": "96.1 µM"}
{"SMILES": "CCc1cc(NCc2nc3c(C)ccc(C)c3o2)c(=O)[nH]c1C", "changes": "RT-K103N Y188C", "read by": "nucleotide incorporation", "read-out": "fold resistance", "result": "70.7"}
{"SMILES": "CCN1c2ncc(CCOc3ccc(-c4ccc[n+]([O-])c4)cc3C)cc2C(=O)N(C)c2cccnc21", "strain": "IIIB", "changes": "RT-K103N Y181C", "read by": "nucleotide incorporation / radiometric", "read-out": "fold resistance", "result": "1"}
{"SMILES": "COC(=O)c1ccc(-c2ccc(NC(=O)CSc3nnnn3-c3ccc(C(C)(C)C)cc3Cl)c(Cl)c2)cc1", "changes": "RT-K103 Y181C", "read by": "PicoGreen / fluorescence", "read-out": "IC50", "result": "<1 µM"}
{"SMILES": "CCN1c2ncc(CCOc3ccc4cc(C(=O)NN)ccc4c3)cc2C(=O)N(C)c2cccnc21", "strain": "WT", "read by": "nucleotide incorporation / radiometric", "read-out": "IC50", "result": "<0.1 µM"}
{"SMILES": "CCN1c2ncc(CCOc3ccc(-c4ccc(C)nc4)cc3C)cc2C(=O)N(C)c2cccnc21", "strain": "IIIB", "changes": "RT-K103N Y181C", "read by": "nucleotide incorporation / radiometric", "read-out": "fold resistance", "result": "1"}
{"SMILES": "CCN1c2ncc(CCOc3ccc(CC(=O)O)c4ccccc34)cc2C(=O)N(C)c2ccc(Cl)nc21", "changes": "RT-V106A", "read by": "nucleotide incorporation / radiometric", "read-out": "fold resistance", "result": ">10"}
{"SMILES": "CCN1c2ncc(CCOc3ccc(Nc4cccc(CC(=O)O)c4)cc3C)cc2C(=O)N(C)c2cccnc21", "strain": "IIIB", "changes": "RT-K103N Y181C", "read by": "nucleotide incorporation / radiometric", "read-out": "fold resistance", "result": "1"}
{"SMILES": "CCN1c2ncc(CCOc3ccc(CC(=O)O)c4ccccc34)cc2C(=O)Nc2c(C)ccnc21", "changes": "RT-Y188L", "read by": "nucleotide incorporation / radiometric", "read-out": "fold resistance", "result": ">10"}
{"SMILES": "CCN1c2ncc(CCOc3ccc(-c4cc(C(=O)O)c(C)o4)cc3)cc2C(=O)N(C)c2cccnc21", "strain": "IIIB", "changes": "RT-K103N Y181C", "read by": "nucleotide incorporation / radiometric", "read-out": "fold resistance", "result": ">2"}
{"SMILES": "O=c1cc(Cc2ccccc2)nc(NCCCCO)[nH]1", "changes": "RT-K103N", "read-out": "Ki", "result": "840 µM"}
{"SMILES": "CS(=O)(=O)Nc1ccc2c(c1)CN(c1nn3c(C4CC4)nnc3c3ccccc13)CC2", "strain": "IIIB", "read by": "RT activity / fluorescence", "read-out": "IC90", "result": "1.77 µM"}
{"SMILES": "CCN1c2ncc(CCOc3ccc4cc(CC(=O)O)ccc4c3C)cc2C(=O)N(C)c2cccnc21", "changes": "RT-V106A", "read by": "nucleotide incorporation / radiometric", "read-out": "fold resistance", "result": "1–10"}
{"SMILES": "CC(C(=O)Nc1ccc(NC(=O)CSc2nnnn2-c2ccc(C(C)(C)C)cc2Cl)c(Cl)c1)c1ccccc1", "strain": "WT", "read by": "PicoGreen / fluorescence", "read-out": "IC50", "result": "<1 µM"}
{"SMILES": "CCN1c2ncc(CCOc3ccc(-c4cc[n+]([O-])cc4)cc3)cc2C(=O)N(C)c2cccnc21", "strain": "IIIB", "changes": "RT-K103N Y181C", "read by": "nucleotide incorporation / radiometric", "read-out": "fold resistance", "result": "1"}
{"SMILES": "CC(C)(C#Cc1ccc(NC(=O)CSc2nnnn2-c2ccc(C3CC3)cc2Cl)c(Cl)c1)NC(=O)Cn1cncn1", "changes": "RT-K103 Y181C", "read by": "PicoGreen / fluorescence", "read-out": "IC50", "result": "<1 µM"}
{"SMILES": "CCN1c2nc(C(F)(F)F)ccc2NC(=O)c2cc(CCOc3cc[n+]([O-])c4ccccc34)cnc21", "changes": "RT-K103N Y181C", "read by": "nucleotide incorporation / radiometric", "read-out": "fold resistance", "result": "2.4"}
{"SMILES": "CCN1c2ncc(CCOc3ccc(C(=O)Nc4ccc(C(=O)O)cn4)cc3C)cc2C(=O)N(C)c2cccnc21", "strain": "IIIB", "changes": "RT-K103N Y181C", "read by": "nucleotide incorporation / radiometric", "read-out": "fold resistance", "result": "1"}
{"SMILES": "Cc1c(Cc2ccccc2)nc(NCCCCN)[nH]c1=O", "changes": "RT-L100I", "read-out": "Ki", "result": ">1000 µM"}
{"SMILES": "CC(C)(C)c1ccc(-n2nnnc2SCC(=O)Nc2ccc(OCCN3CCOCC3)cc2Cl)c(Cl)c1", "changes": "RT-K103 Y181C", "read by": "PicoGreen / fluorescence", "read-out": "IC50", "result": "<1 µM"}
{"SMILES": "CCN1c2ncc(CCOc3ccc(-c4cncnc4)cc3)cc2C(=O)N(C)c2cccnc21", "strain": "IIIB", "changes": "RT-K103N Y181C", "read by": "nucleotide incorporation / radiometric", "read-out": "fold resistance", "result": ">2"}
{"SMILES": "O=C(COc1ccc(NC(=O)CSc2nnnn2-c2ccc(C3CC3)cc2Cl)c(Cl)c1)NCCc1ccccn1", "strain": "WT", "read by": "PicoGreen / fluorescence", "read-out": "IC50", "result": "<1 µM"}
{"SMILES": "NCCCCNc1nc(Cc2ccccc2)cc(=O)[nH]1", "read-out": "Ki", "result": "70 µM"}
{"SMILES": "CN1CCN(NS(=O)(=O)c2ccc(NC(=O)CSc3nnnn3-c3ccc(C4CC4)cc3Cl)c(Cl)c2)CC1", "changes": "RT-K103 Y181C", "read by": "PicoGreen / fluorescence", "read-out": "IC50", "result": "<1 µM"}
{"SMILES": "CCN1c2ncc(CCOc3ccc(-c4ccc(O)c(C(=O)O)c4)cc3C)cc2C(=O)N(C)c2cccnc21", "strain": "IIIB", "changes": "RT-K103N Y181C", "read by": "nucleotide incorporation / radiometric", "read-out": "fold resistance", "result": ">1"}
{"SMILES": "O=C(CSc1nnnn1-c1ccc(C2CC2)cc1Cl)Nc1ccc(C#CCCN2CCCC2)cc1Cl", "changes": "RT-K103 Y181C", "read by": "PicoGreen / fluorescence", "read-out": "IC50", "result": "<1 µM"}
{"SMILES": "CCN1c2ncc(CCOc3ccc(CC(C)C(=O)O)c4ccccc34)cc2C(=O)N(C)c2ccc(Cl)nc21", "changes": "RT-V106A", "read by": "nucleotide incorporation / radiometric", "read-out": "IC50", "result": ">1 µM"}
{"SMILES": "CC(C)(C#Cc1ccc(NC(=O)CSc2nnnn2-c2ccc(C3CC3)cc2Cl)c(Cl)c1F)NC(=O)CN1CCNCC1", "changes": "RT-K103 Y181C", "read by": "PicoGreen / fluorescence", "read-out": "IC50", "result": "<1 µM"}
{"SMILES": "COc1cc2c(cc1OC)CN(c1nn3c(C)nnc3c3ccccc13)CC2", "strain": "IIIB", "read by": "RT activity / fluorescence", "read-out": "IC90", "result": "0.94 µM"}
{"SMILES": "Cc1ccc(-n2nnnc2SCC(=O)Nc2ccc(-c3ccc(CC(=O)NS(C)(=O)=O)cc3)cc2Cl)c(Cl)c1", "strain": "WT", "read by": "PicoGreen / fluorescence", "read-out": "IC50", "result": "<1 µM"}
{"SMILES": "Nc1cc2c(c(N3CCOCC3)c1)CCN(c1nn3c(C4CC4)nnc3c3ccccc13)C2", "strain": "98US_MSC5016", "read by": "RT activity / fluorescence", "read-out": "IC90", "result": "57.8 µM"}